This passage reports activity change, negative = inhibition, outcome and Potency results from PubChem BioAssay (NCATS).

The chains behind the UniProt entries cited, without tags or fusion partners.
UniProt O15648, whole entry: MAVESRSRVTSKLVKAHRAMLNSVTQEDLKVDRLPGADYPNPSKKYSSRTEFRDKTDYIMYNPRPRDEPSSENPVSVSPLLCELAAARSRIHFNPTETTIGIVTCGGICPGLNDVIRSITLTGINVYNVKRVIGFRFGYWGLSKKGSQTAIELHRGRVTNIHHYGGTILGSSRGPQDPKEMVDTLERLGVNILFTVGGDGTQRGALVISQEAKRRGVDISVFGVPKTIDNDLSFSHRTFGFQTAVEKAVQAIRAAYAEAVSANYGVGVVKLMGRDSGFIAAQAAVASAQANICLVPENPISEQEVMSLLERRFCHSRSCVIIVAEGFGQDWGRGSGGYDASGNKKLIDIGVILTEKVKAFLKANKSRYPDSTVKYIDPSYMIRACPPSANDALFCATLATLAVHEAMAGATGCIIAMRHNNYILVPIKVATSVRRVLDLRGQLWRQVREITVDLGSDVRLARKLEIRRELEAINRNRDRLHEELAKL

This is a selection; strong and weak results do not stand in their true shares. Inconclusive results are not listed. For part of these data: Results with a measured potency or affinity are listed apart. Calls of active or inactive are those of the source.

The target in experiment [1] is ATP-dependent 6-phosphofructokinase (Trypanosoma brucei brucei) (UniProt O15648). Kind of experiment: qHTS Assay to Find Inhibitors of T. brucei phosphofructokinase: hit validation (AID 492961).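 Also: luminescence reports ADP formed as PFK phosphorylates fructose-6-phosphate with ATP; % is scaled to controls: 0 for no effect and ±100 for the full control effect.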 Conditions: T. brucei PFK, ADP-Glo luminescence; at 51.4 µM (top of the series) unless noted. An outline of the steps:
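Percent activity derived from corrected luminescence, normalized between 0x and 1x enzyme controls, then fitted to concentration-response curves. Conditions: 1.25 nM PFK, 0.1 mM ATP, 0.5 mM F6P, 45 min RT.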

The conditions of experiment [2]: Ebola virus entry assay, ratio channel.
The conditions of experiment [3]: Ebola virus entry assay, green channel fluorescence.
The conditions of experiment [4]: Ebola virus entry assay, reporter ratio channel; Channel type: primary.
The conditions of experiment [5]: Ebola virus entry assay, blue channel (ratio component).
Experiment [6] is described as follows: qHTS assay for measurement of the activity of small molecule inhibitors on Zika virus induced Caspase-3 activity in human iPSC derived neural progenitor cells (hNPCs) (AID 1224857). Also: % of control where 0% means no effect; nearly all actives have a fitted effect of over 65% in size. An outline of the steps: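 Zika virus (2 FFU/cell) infection of human iPSC-derived NPCs, 6 h, following 1 h compound preincubation. Read-out: Caspase-Glo 3/7 luminescence.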
A short description of experiment [7]: qHTS assay for measurement of the activity of small molecule inhibitors on Zika virus induced Caspase-3 activity in human astrocytoma cells (AID 1224859).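 Also: plate controls were ZIKV-infected untreated cells for no effect and uninfected cells for full effect.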 Particulars: SNB-19 ZIKV-induced caspase-3/7, luminescence, 6 h; at 92.8 µM (top of the series) unless noted. The procedure, abridged: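 Caspase activation in ZIKV-infected SNB-19 cells (2 FFU/cell, 6 h) measured by Caspase-Glo 3/7 luminescence after 30 min RT; compound pre-incubated 1 h; normalised to uninfected and infected controls.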

With `CN(C)CCS`, in experiment [1], the activity change, negative = inhibition was inactive: -8.61%.

For `Cc1cccc([N+](=O)[O-])c1[N+](=O)[O-]`, the outcome in experiment [2], in experiment [3], in experiment [4] and in experiment [5] was inactive. The Potency entry in experiment [6] was “inactive”. The activity change, negative = inhibition in experiment [7] was inactive: -1.33%.

Turning to `CC(C)OP(=O)(F)OC(C)C`, in experiment [1], the activity change, negative = inhibition is inactive: 5.12%.

In the case of `O=[N+]([O-])c1cccc([N+](=O)[O-])c1`, the results for the activity change, negative = inhibition in experiment [1] and in experiment [7] were inactive: 13.1% and inactive: -3.69%, respectively. The Potency result in experiment [6] was “inactive”.

`C/C1=C2N=C(/C=C3N=C(/C(C)=C4\[N-][C@@](C)([C@H]5N=C1[C@@](C)(CCC(=O)NC[C@H](C)OP(=O)([O-])O[C@@H]1[C@H](O)[C@H](n6cnc7cc(C)c(C)cc76)O[C@@H]1CO)[C@@H]5CC(N)=O)[C@](C)(CC(N)=O)[C@H]4CCC(N)=O)[C@@](C)(CC(N)=O)[C@@H]\3CCC(N)=O)C(C)(C)[C@@H]/2CCC(N)=O.[C-]#N.[Co+3]`: the activity change, negative = inhibition in experiment [1] is inactive: 5.49% [at 24.3 µM].
